Molecular target: HCV RdRp (NS5B) (UniProt P26663)
Assay: RdRp assay with ELISA detection (Table 1)
Assay type: biochemical, hepatitis C virus
Details: read-out: RdRp IC50

Substance: (R)-4-[2-(S)-(2-AMINO-ACETYLAMINO)-ACETOXY]-2-P-TOLYLCARBAMOYL-PYRROLIDINE-1-CARBOXYLIC ACID 9H-FLUOREN-9-YLMETHYL ESTER
- IC50: > 50 µM

Substance: (S)-{4-[(5-AMINO-1-P-TOLYLCARBAMOYL-PENTYLAMINO)-METHYL]-PHENYL}-CARBAMIC ACID
- IC50: > 50 µM
